Anti-infective test results gathered from many reports (values: NIAID ChemDB through PubChem).

Common to all: host cell toxicity; cell line: MRC-5; endpoint: CC50

An empty or dashed field is not shown. CCn is the concentration with n% toxicity to the cells. Rows are shuffled and stem from different studies.

compound,method,value
CC#Cc1cn([C@@H]2O[C@H](COP(=O)(Oc3ccccc3)Oc3ccc([N+](=O)[O-])cc3)[C@@H](O)[C@@H]2O)c(=O)[nH]c1=O,-,110 µM
O=C(C1=NN(c2ccccc2)C2C3N(c4ccccc4)N=C(C(=O)c4ccccc4)N3c3ccccc3N12)c1ccccc1,resazurin,64 µM
O=c1[nH]c(=S)n([C@@H]2O[C@H](CO)[C@@H](O)[C@@H]2O)cc1CCO,-,>244.8 µM
C#CCN1C(=O)c2ccccc2N(Cc2ccc(Cl)cc2)S1(=O)=O,-,13.8 µM
C=Cc1cn([C@H]2C[C@H](O)[C@@H](CO)O2)c(=S)[nH]c1=O,-,>290.3 µM
CC#Cc1cn([C@@H]2O[C@H](COP(=O)(OCC)Oc3ccccc3)[C@@H](O)[C@@H]2O)c(=O)[nH]c1=O,-,>500 µM
Nc1nc(=S)n([C@@H]2O[C@H](CO)[C@@H](O)[C@@H]2O)cc1Br,-,>592 µM
N#Cc1ccc(-c2cc3ccccn3c2)cc1,MTT,>500 µM
CC#Cc1cn([C@@H]2O[C@H](COP(=O)(N[C@@H](C)C(=O)OC)Oc3ccccc3)[C@@H](O)[C@@H]2O)c(=O)[nH]c1=O,-,>500 µM
CO/N=C/c1cc(C)c(OCCC2CCN(c3ccc(C)nn3)CC2)cc1C,neutral red,>0.1 µg/mL
C[C@H]1[C@H](O)[C@@H](CO)O[C@H]1n1cc(I)c(=O)[nH]c1=O,-,61.27 µg/mL
COc1ccc(Cn2cc(C(N)=S)c3c(N)ncnc32)cc1,-,80 µM
O=S(=O)(O)c1cc(O)c2c(NS(=O)(=O)c3ccc(-c4ccc(S(=O)(=O)Nc5cc(S(=O)(=O)O)cc6cc(S(=O)(=O)O)cc(O)c56)cc4)cc3)cc(S(=O)(=O)O)cc2c1,-,>500 µM
O=C1c2ccccc2N(Cc2ccc(Cl)c(Cl)c2)S(=O)(=O)N1Cc1ccccc1,-,>56 µM
Nc1nc2c(ncn2COC(COP(=O)(O)O)COP(=O)(O)O)c(=O)[nH]1,-,>1000 µM
Nc1nc(=O)n([C@@H]2O[C@H](CO)[C@@H](O)[C@@H]2F)cc1I,-,9.1 µg/mL
Nc1nc2c(ncn2COC2COP(=O)(O)OC2)c(=O)[nH]1,-,120 µM
CCCCN1C(=O)c2ccccc2N(Cc2ccc(OC)cc2)S1(=O)=O,-,59.1 µM
Nc1nc(=S)n([C@@H]2O[C@H](CO)[C@@H](O)[C@@H]2O)cc1I,-,>520 µM
CC#Cc1cn([C@@H]2O[C@H](COP(=O)(O)Oc3ccc(OC)cc3)[C@@H](O)[C@@H]2O)c(=O)[nH]c1=O,-,>500 µM
Brc1sccc1-c1cc2ccccn2c1,MTT,500 µM
CCO/N=C/c1ccc(OCCC2CCN(c3cc(C)c(Cl)nn3)CC2)cc1,neutral red,>0.5 µg/mL
Nc1ncnc2c1ncn2OCCCCP(=O)(O)O,-,>100 µg/mL
N#Cc1ccc(CN2c3ccccc3C(=O)N(Cc3ccccc3)S2(=O)=O)cc1,-,>62 µM
CC1(C)C(=O)C=C[C@]2(C)C3CC[C@@]4(C)[C@H](c5ccoc5)OC(=O)[C@H]5O[C@]54C3[C@H](O)[C@H](O)C12,resazurin,>219 µM
O=c1[nH]c(=O)n([C@@H]2O[C@H](CO)[C@@H](O)[C@@H]2F)cc1I,-,9.3 µg/mL
CCCN1C(=O)c2ccccc2N(Cc2ccc(Cl)cc2)S1(=O)=O,-,13.7 µM
CC(O)c1cn([C@@H]2O[C@H](CO)[C@@H](O)[C@@H]2O)c(=S)[nH]c1=O,-,>213 µM
O=S1(=O)N=C(OCc2ccccc2)c2ccccc2N1Cc1ccc(Cl)c(Cl)c1,-,>56 µM
Nc1nc2c(ncn2CCC(CO)CO)c(=O)[nH]1,-,160 µg/mL
Nc1nc(=S)n([C@H]2C[C@H](O)[C@@H](CO)O2)cc1Br,-,312 µM
CCO/N=C/c1ccc(OCCC2CCN(c3nc4ccccc4o3)CC2)cc1,neutral red,>0.1 µg/mL
Brc1ccc2cc(-c3ccccc3)cn2c1,MTT,>500 µM
CCCCCCCCCCCCCCCCOCCCOP(=O)(O)OCC(CO)CCn1cnc2c(=O)[nH]c(N)nc21,-,>300 µM
Clc1ccc(-c2cc3ccccn3c2)c(Cl)c1,MTT,>500 µM
C=Cc1cn([C@@H]2O[C@H](CO)[C@@H](O)[C@@H]2O)c(=S)nc1N,-,>266.3 µM
CCO/N=C(\CC)c1ccc(OCCC2CCN(c3ccc(Cl)nn3)CC2)cc1,visual reading,>1 µg/mL
Cc1ccc(C(=O)Nc2ccc(S(=O)(=O)O)c3cc(S(=O)(=O)O)cc(S(=O)(=O)O)c23)cc1NC(=O)c1cccc(NC(=O)Nc2cccc(C(=O)Nc3cc(C(=O)Nc4ccc(S(=O)(=O)O)c5cc(S(=O)(=O)O)cc(S(=O)(=O)O)c45)ccc3C)c2)c1,-,>500 µM
Nc1ccn(C[C@H]2COP(=O)(O)CO2)c(=O)n1,-,>3000 µM
O=C1c2ccccc2N(Cc2ccc([N+](=O)[O-])cc2)S(=O)(=O)N1Cc1ccc([N+](=O)[O-])cc1,-,>53 µM
Nc1nc2c(ccn2[C@@H]2C[C@H](CO)[C@H](O)[C@@H]2O)c(=O)[nH]1,-,>100 µg/mL
CCc1ccc2cc(-c3ccccc3)cn2c1,MTT,>500 µM
CCc1cn([C@@H]2O[C@H](CO)[C@@H](O)[C@@H]2O)c(=S)[nH]c1=O,-,>213 µM
CCO/N=C/c1ccc(OCCC2CCN(c3ccc(Cl)nn3)CC2)c([N+](=O)[O-])c1,visual reading,>1 µg/mL
C#Cc1cn([C@H]2C[C@H](O)[C@@H](CO)O2)c(=O)[nH]c1=O,-,50 µM
c1ccc(-c2cc3ccccn3c2)nc1,MTT,214 µM
Nc1nc(=S)n([C@@H]2O[C@H](CO)[C@@H](O)[C@@H]2O)cc1Cl,-,>341 µM
CCO/N=C/c1cc(C)c(OCCCc2cc(C)no2)c(C)c1,visual reading,25 µg/mL
Nc1ncnc2c1ncn2OCC(CO)CCP(=O)(O)O,-,>100 µg/mL
O=c1[nH]c(=S)n([C@@H]2O[C@H](CO)[C@@H](O)[C@@H]2O)cc1/C=C/c1ccccc1,-,>213 µM
CCOC1=NS(=O)(=O)N(Cc2ccc(Cl)c(Cl)c2)c2ccccc21,-,6.4 µM
CCc1cn([C@H]2C[C@H](O)[C@@H](CO)O2)c(=S)nc1N,-,>288.6 µM
CCCCCCCCCCCCCCCCOCCCOP(=O)(O)OCC(CO)OCn1cnc2c(=O)[nH]c(N)nc21,-,>300 µM
CC(C)CN1C(=O)c2ccccc2N(Cc2ccc(Cl)cc2)S1(=O)=O,-,65.9 µM
Fc1cccn2cc(-c3ccccc3)cc12,MTT,>500 µM
CCCCCCCCCCCCCCCC(=O)Nc1cc(S(=O)(=O)O)cc2cc(S(=O)(=O)O)cc(O)c12,-,98 µM
CCCCN1C(=O)c2ccccc2N(C(=O)c2ccc(C)cc2)S1(=O)=O,-,59.4 µM
Cc1cn([C@H]2C[C@H](O)[C@@H](CO)O2)c(=S)nc1N,-,>300.8 µM
CCO/N=C/c1ccc(OCCC2CCN(c3ccc(Cl)nn3)CC2)cc1O,visual reading,>1 µg/mL
CCCCN1C(=O)c2ccccc2N(C(=O)c2ccc(Cl)cc2)S1(=O)=O,-,56.7 µM

Repeating the final 9 entries:

compound	method	value
CCc1cn([C@H]2C[C@H](O)[C@@H](CO)O2)c(=S)nc1N	-	>288.6 µM
CCCCCCCCCCCCCCCCOCCCOP(=O)(O)OCC(CO)OCn1cnc2c(=O)[nH]c(N)nc21	-	>300 µM
CC(C)CN1C(=O)c2ccccc2N(Cc2ccc(Cl)cc2)S1(=O)=O	-	65.9 µM
Fc1cccn2cc(-c3ccccc3)cc12	MTT	>500 µM
CCCCCCCCCCCCCCCC(=O)Nc1cc(S(=O)(=O)O)cc2cc(S(=O)(=O)O)cc(O)c12	-	98 µM
CCCCN1C(=O)c2ccccc2N(C(=O)c2ccc(C)cc2)S1(=O)=O	-	59.4 µM
Cc1cn([C@H]2C[C@H](O)[C@@H](CO)O2)c(=S)nc1N	-	>300.8 µM
CCO/N=C/c1ccc(OCCC2CCN(c3ccc(Cl)nn3)CC2)cc1O	visual reading	>1 µg/mL
CCCCN1C(=O)c2ccccc2N(C(=O)c2ccc(Cl)cc2)S1(=O)=O	-	56.7 µM